Experimental data reported in ChEMBL document CHEMBL3044797 (Crop Prot, 2008).

What was measured:
Fusarium graminearum [1] = assay: Fungicidal activity against Fusarium graminearum infested wheat field assessed as frequency of resistance at 750 g ai/ha applied upon initiation of flowering measured after 14 days post compound treatment
Fusarium graminearum [2] = assay: Fungicidal activity against Fusarium graminearum infested wheat field assessed as frequency of resistance at 500 g ai/ha applied upon initiation of flowering measured after 14 days post compound treatment

Row | Compound | Activity (Fusarium graminearum [1]) | Activity (Fusarium graminearum [2])
1 | COC(=O)Nc1nc2ccccc2[nH]1 | 13.4% | –
2 | CCOC(=O)/C(C#N)=C(/N)c1ccccc1 | – | 1.39%
